Anti-infective test results gathered from many reports (values: NIAID ChemDB through PubChem).

Common to all: growth or infection tests; agent: Hepatitis C virus; read-out: EC50

Rows are shuffled and stem from different studies. Blank or dashed fields: not listed here. ECn: concentration that inhibits the pathogen or its effect by n%.

| compound | cells | changes | method | setting | strain | value |
|---|---|---|---|---|---|---|
| CCC[C@H](NC(=O)[C@@H]1[C@H]2CCC[C@H]2CN1C(=O)[C@@H](NC(=O)[C@@H](NC(=O)c1cnccn1)C1CCCCC1)C(C)(C)C)C(=O)C(=O)NC1CC1 | Huh7 | R1135K S1560G K1691R T1993A G2042C L2155P P2166L | PCR |  | 1b H77 | 0.54 µM |
| NC(=O)c1nn(Cc2cccc(NC(=O)c3ccccc3F)c2)c2ccccc12 | Huh7.5.1 |  | fluorescence |  | J399EM | 0.115 µM |
| Oc1cc(O)c2c(c1)OC(c1ccc(O)c(O)c1)C(OC1(c3cc(O)c(O)c(O)c3)Oc3cc(O)cc(O)c3C(O)C1O)C2 | Huh7-1 |  | PCR |  | JFH-1 | 9.2 µM |
| C[C@@]1(O)[C@H](O)[C@@H](CO)O[C@H]1n1cnc2c(N)ncnc21 | Huh7 replicon |  | luciferase |  | 1a H77 | 0.2 µM |
| COc1c(C)c2c(c(O)c1CC(=O)O)C(=O)OC2 | Huh7.5.1 |  | GFP / fluorescence |  | J399EM | 0.52 µM |
| CC1CCC(C(=O)N(c2cc(C#CC(C)(C)C)sc2C(=O)O)C2CCC(O)CC2)CC1 | 1C |  | luciferase |  | Con1 | 0.017 µM |
| [N-]=[N+]=N[C@]1(CO)O[C@@H](n2ccc(N)nc2=O)[C@H](O)[C@@H]1O | Huh 9-13 |  | PCR |  |  | >33 µM |
| C=CC(=O)NCC(=O)N1C[C@H](Oc2nccc3ccc(Br)cc23)C[C@H]1C(=O)N[C@]1(C(=O)NS(=O)(=O)C2CC2)C[C@H]1C=C |  |  | luciferase |  | 1b D168A | >3 µM |
| C[C@@]1(O)[C@H](O)[C@@H](CO)O[C@H]1n1cnc2c(N)ncnc21 | Huh7-Lunet |  | luciferase |  | GT3a | 0.192 µM |
| CCN(CC)CCN1C(=O)c2cccc3cc(N)cc(c23)C1=O | Huh7-1 |  | PCR |  | sg1a (H77) | 5.6 µM |
| CCO[C@@H]1[C@H](OCC)[C@@H](OCC)C=C2c3cc4c(cc3C(=O)N(CC)[C@H]21)OCO4 | Huh7.5 |  | antigen / microscopy |  | Synthesized HCV RNA | >83 µM |
| CCC[C@H](NC(=O)[C@@H]1[C@H]2CCC[C@H]2CN1C(=O)[C@@H](NC(=O)[C@@H](NC(=O)c1cnccn1)C1CCCCC1)C(C)(C)C)C(=O)C(=O)NC1CC1 | HuH6 |  | PCR |  |  | >24 µM |
| CCC[C@H](NC(=O)[C@@H]1[C@H]2CCC[C@H]2CN1C(=O)[C@@H](NC(=O)[C@@H](NC(=O)c1cnccn1)C1CCCCC1)C(C)(C)C)C(=O)C(=O)NC1CC1 | Huh7.5.1 |  | luciferase / replicon |  | JFH-1 | 0.67 µM |
| CC1CCC(C(=O)N(c2cc(C#CC(C)(C)C)sc2C(=O)O)C2CCC(O)CC2)CC1 | Huh7-Lunet |  | luciferase |  | GT1b | 0.011 µM |
| C[C@@]1(O)[C@H](O)[C@@H](CO)O[C@H]1n1cnc2c(=O)[nH]c(N)nc21 | Huh7 |  |  | 24 h |  | 4.2 µM |
| COc1ccc2c(O[C@@H]3C[C@H]4C(=O)N[C@]5(C(=O)O)C[C@H]5/C=C\CCCCC[C@H](NC(=O)OC5CCCC5)C(=O)N4C3)cc(-c3csc(NC(C)C)n3)nc2c1 | HuH6 |  | PCR |  |  | >22 µM |
| O=C1OC2(c3ccc(O)cc3Oc3cc(O)ccc32)c2c1c(-c1ccccc1)c(-c1ccccc1)c(-c1ccccc1)c2-c1ccccc1 | Huh7-1 |  | PCR |  | sg1a (H77) | 6.9 µM |
| CCC[C@H](NC(=O)[C@@H]1[C@H]2CCC[C@H]2CN1C(=O)[C@@H](NC(=O)[C@@H](NC(=O)c1cnccn1)C1CCCCC1)C(C)(C)C)C(=O)C(=O)NC1CC1 | Huh7.5 |  | antigen |  | 452 | 10.4 µM |
| CC(=O)Nc1ccc(-c2ccc(Cl)cc2)c(COc2ccc(-c3nc4cc(C(=O)O)ccc4n3C3CCCCC3)cc2)c1 | H77 |  | luciferase |  |  | 0.1093 µM |
| CC(C)OC(=O)[C@H](C)N[P@](=O)(OC[C@H]1O[C@@](C#N)(c2ccc3c(N)ncnn23)[C@](C)(O)[C@@H]1OC(=O)C(C)C)Oc1ccccc1 | Huh7 replicon |  | luciferase |  | 2a JFH-1 | 0.68 µM |
| CC(C)(C)Oc1cccc2nc(N)nc(N)c12 | Huh7.5.1 |  | luciferase / replicon |  | JFH-1 | 0.73 µM |
| NC(=O)c1nn(Cc2cccc(NC(=O)c3ccccc3)c2)c2ccccc12 | Huh7.5.1 |  | fluorescence |  | J399EM | 0.125 µM |
| CCC[C@H](NC(=O)[C@@H]1[C@H]2CCC[C@H]2CN1C(=O)[C@@H](NC(=O)[C@@H](NC(=O)c1cnccn1)C1CCCCC1)C(C)(C)C)C(=O)C(=O)NC1CC1 | Huh7.5 | Y93H | luciferase / reporter gene |  | genotype 1b | 0.1594 µM |
| C[C@H](Br)C(=O)c1ccc2cc(Br)c3ccccc3c2c1 | Huh7-1 |  | PCR |  | JFH-1 | 33 µM |
| Cc1ccccc1C(=O)Nc1cccc(Cn2nc(C(N)=O)c3ccccc32)c1 | Huh7.5.1 | Luciferase reporter gene | luciferase / replicon |  | J399EM | 0.032 µM |
| C[C@@]1(O)[C@H](O)[C@@H](CO)O[C@H]1c1ccc2c(N)ncnn12 | Huh7.5 |  | PCR |  | GT2a | 0.63 µM |
| COC(=O)CNC(=O)c1nn(Cc2cccc(NC(=O)c3ccc(F)cc3)c2)c2ccccc12 | Huh7.5.1 |  | fluorescence |  | J399EM | >10 µM |
| C[C@@]1(O)[C@H](O)[C@@H](CO)O[C@H]1n1cnc2c(N)ncnc21 | Con-1 |  | luciferase |  |  | 0.3031 µM |
| CC[C@H]1C[C@]1(NC(=O)[C@@H]1C[C@@H]2CN1C(=O)[C@H](C(C)(C)C)NC(=O)OCC(C)(C)CCCCc1cccc3c1CN(C3)C(=O)O2)C(=O)NS(=O)(=O)C1CC1 | Huh7.5 |  | antigen |  | JCH2 | 0.05 µM |
| CC(=N/O)/C(C)=N/O | Huh7-1 |  | PCR |  | sg1b | 3.82 µM |

The first 4 rows once more:

compound | cells | changes | method | setting | strain | value
CCC[C@H](NC(=O)[C@@H]1[C@H]2CCC[C@H]2CN1C(=O)[C@@H](NC(=O)[C@@H](NC(=O)c1cnccn1)C1CCCCC1)C(C)(C)C)C(=O)C(=O)NC1CC1 | Huh7 | R1135K S1560G K1691R T1993A G2042C L2155P P2166L | PCR |  | 1b H77 | 0.54 µM
NC(=O)c1nn(Cc2cccc(NC(=O)c3ccccc3F)c2)c2ccccc12 | Huh7.5.1 |  | fluorescence |  | J399EM | 0.115 µM
Oc1cc(O)c2c(c1)OC(c1ccc(O)c(O)c1)C(OC1(c3cc(O)c(O)c(O)c3)Oc3cc(O)cc(O)c3C(O)C1O)C2 | Huh7-1 |  | PCR |  | JFH-1 | 9.2 µM
C[C@@]1(O)[C@H](O)[C@@H](CO)O[C@H]1n1cnc2c(N)ncnc21 | Huh7 replicon |  | luciferase |  | 1a H77 | 0.2 µM